Values from PubChem BioAssay AID624099 (ICCB-Longwood, 2012)
Here is one part, drawn at random, of about 21,000 deposited reagents. 497 of all reagents (2.4%) were called active. 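Higher z means weaker E2 silencing; only reporter increases were scored, and knock-downs that hurt cell survival may mask genuine repressor factors.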 Reagent sequences are not shown.

Test: 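Host factors E2 relies on to silence an HPV18 LCR reporter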 (primary screen)
Cells: human C33A cervical carcinoma cells (HPV-negative) stably expressing BPV1 E2 and an HPV18 LCR luciferase reporter
Reagents: siRNA pool against human genes, 40 nM
Duration: 72 h
Measurement: 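HPV18 LCR reporter light per well, converted to plate-wise z-scores that exclude control wells, and averaged over triplicate plates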
Direction: mean z-score and z-score: higher = stronger reporter signal, weaker E2 silencing
Rule for the call: 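Hit if mean z-score reaches 2 and two or more of three replicate z-scores also reach 2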

After knock-down of ZNF180, the screen gave mean z-score 0.72; z-score, replicate A = 0.5; z-score, replicate B = 0.77; z-score, replicate C = 0.9; inactive.
For CIB1, the entry reads mean z-score -1.16; z-score, replicate A = -0.93; z-score, replicate B = -1.31; z-score, replicate C = -1.24; inactive.
After knock-down of IFNA2 the results were mean z-score -0.22; z-score, replicate A = 0.04; z-score, replicate B = -0.28; z-score, replicate C = -0.43; inactive.
Against CLEC12A, the entry reads mean z-score 0.23; z-score, replicate A = -0.04; z-score, replicate B = 0.53; z-score, replicate C = 0.21; inactive.
After knock-down of ANKMY2, the screen gave mean z-score -0.17; z-score, replicate A = -0.08; z-score, replicate B = -0.04; z-score, replicate C = -0.37; inactive.
Silencing of STAU2 gave: mean z-score -0.06; z-score, replicate A = -0.36; z-score, replicate B = 0.13; z-score, replicate C = 0.04; inactive.
FOXJ3 gave mean z-score -1.22; z-score, replicate A = -0.88; z-score, replicate B = -1.44; z-score, replicate C = -1.34; inactive.
Silencing of RGS22 gave: mean z-score -0.59; z-score, replicate A = -0.62; z-score, replicate B = -0.78; z-score, replicate C = -0.38; inactive.
After knock-down of GDPGP1, the screen gave mean z-score 0.83; z-score, replicate A = 0.86; z-score, replicate B = 0.52; z-score, replicate C = 1.11; inactive.
For TMEM259, the entry reads mean z-score -1.43; z-score, replicate A = -1.4; z-score, replicate B = -1.34; z-score, replicate C = -1.56; inactive.
Silencing of MYL3 came out at: mean z-score 1.34; z-score, replicate A = 1.16; z-score, replicate B = 1.5; z-score, replicate C = 1.37; inactive.
Silencing of ZNF721 resulted in: mean z-score 1.03; z-score, replicate A = 1.46; z-score, replicate B = 0.55; z-score, replicate C = 1.07; inactive.
UBE3B gave mean z-score -0.55; z-score, replicate A = -0.5; z-score, replicate B = -0.69; z-score, replicate C = -0.45; inactive.
After knock-down of MACIR, the record shows mean z-score 0.09; z-score, replicate A = 0.03; z-score, replicate B = 0.13; z-score, replicate C = 0.11; inactive.
After knock-down of CISD1 the results were mean z-score 0.92; z-score, replicate A = 0.5; z-score, replicate B = 1.31; z-score, replicate C = 0.95; inactive.
Depletion of CDC20B came out at: mean z-score 2.07; z-score, replicate A = 1.96; z-score, replicate B = 2.44; z-score, replicate C = 1.82; inactive.
After knock-down of HES6, the record shows mean z-score -2.17; z-score, replicate A = -2.19; z-score, replicate B = -2.15; z-score, replicate C = -2.17; inactive.
Depletion of SPN came out at: mean z-score 3.54; z-score, replicate A = 3.02; z-score, replicate B = 2.87; z-score, replicate C = 4.73; active.
Knock-down of HYLS1 resulted in: mean z-score -0.81; z-score, replicate A = -0.77; z-score, replicate B = -1.01; z-score, replicate C = -0.64; inactive.
For RPL30 the deposit lists mean z-score -1.88; z-score, replicate A = -1.54; z-score, replicate B = -2.02; z-score, replicate C = -2.08; inactive.
RGS12 showed mean z-score -0.34; z-score, replicate A = 0.08; z-score, replicate B = -0.56; z-score, replicate C = -0.54; inactive.
For LOC286161 (retired record), the entry reads mean z-score 0.68; z-score, replicate A = 0.57; z-score, replicate B = 0.66; z-score, replicate C = 0.8; inactive.
After knock-down of LOC105377782, the screen gave mean z-score 0.25; z-score, replicate A = 0.48; z-score, replicate B = 0.43; z-score, replicate C = -0.17; inactive.
With knock-down of PPP3CA-DT the results were mean z-score 0.41; z-score, replicate A = 0.59; z-score, replicate B = 0.24; z-score, replicate C = 0.41; inactive.
IFI27L2 gave mean z-score -0.28; z-score, replicate A = -0.03; z-score, replicate B = -0.48; z-score, replicate C = -0.34; inactive.
ZMAT2 showed mean z-score -0.03; z-score, replicate A = 0.32; z-score, replicate B = -0.52; z-score, replicate C = 0.12; inactive.
For KRT6C, the values are mean z-score 1.55; z-score, replicate A = 1.61; z-score, replicate B = 1.25; z-score, replicate C = 1.79; inactive.

Limited to “z-score, replicate B” (2 entries from above):
RPL30 = -2.02
RGS12 = -0.56
